Anti-infective test results gathered from many reports (values: NIAID ChemDB through PubChem).

Common to all: growth or infection tests; species: Staphylococcus aureus

Blank or dashed fields: not listed here. Rows are shuffled and stem from different studies. a–b is a range or a potency band. A number after MIC or MFC names an inhibition level or a share of isolates.

structure	read-out	strain or isolate	value
CSc1ccc(N2C[C@H](CNC(C)=O)OC2=O)cc1F	MIC	ATCC 29213 (linezolid-resistant)	>64 µg/mL
CC1NCc2ccc(-c3ccc4c(=O)c(C(=O)O)cn(C5CC5)c4c3OC(F)F)cc21	MIC	FDA209P	0.125 µg/mL
CNc1c(F)cc2c(=O)c(C(=O)O)cn(-c3cc(N)c(F)cc3F)c2c1C	MIC50	27 isolates (methicillin-resistant)	0.015 µg/mL
CC1(C)C=Cc2cc3c(cc2O1)OC1c2ccc(O)cc2OCC31	MIC		28.4 µg/mL
CC[C@H]1OC(=O)[C@H](C)C(=O)[C@H](C)[C@@H](O[C@@H]2O[C@H](C)C[C@H](N(C)C)[C@H]2O)[C@@]2(C)C[C@@H](C)C(=NC(C)=O)[C@H](C)[C@@H](OC/C(=N\OCc3ccc(-n4cccn4)nc3)CO2)[C@]1(C)O	MIC90	25 strains	32 µg/mL
O=C(O)c1cn(C2CC2)c2cc(-c3ccc4c(c3)CNC4)c(F)cc2c1=O	MIC	FDA209P	0.0313 µg/mL
CC(C)=CCc1c(O)c(CC=C(C)C)c2occ(-c3ccc(O)cc3O)c(=O)c2c1O	MIC		8.3 µg/mL
CC(=O)NC[C@H]1CN(c2ccc(OC3CCN(C(=O)COCc4ccncc4)CC3)c(F)c2)C(=O)O1	MIC	OC4172 methicillin-susceptible	16 µg/mL
CC1NCc2cc(-c3ccc4c(=O)c(C(=O)O)cn(C5CC5)c4c3OC(F)F)ccc21	MIC	FDA209P	0.0625 µg/mL
Cc1c(NC(C)C)c(F)cc2c(=O)c(C(=O)O)cn(-c3cc(N)c(F)cc3F)c12	MIC	W44 (methicillin-resistant)	0.06 µg/mL
CC(C)(Br)C(=O)NC[C@H]1CN(c2ccc3c(c2)-n2cccc2COC3)C(=O)O1	MIC	ATCC 49951 (SMITH)	>32 µg/mL
CCCCCCCCCCOC[N+](C)(C)CCCCCCCC	MBC	ATCC 6538	27.5 µM
CC(=O)NC[C@H]1CN(c2ccc(C(=O)N3CCOCC3)c(F)c2)C(=O)O1	MIC	ATCC 29213 (linezolid-resistant)	>64 µg/mL
CC(C)C(=S)NC[C@H]1CN(c2ccc3c(c2)-n2cccc2COC3)C(=O)O1	MIC	ATCC 29213 (MSSA)	4 µg/mL
CNC(=O)CC1NC(=O)c2csc(n2)-c2ccc(-c3nc(C(=O)NCCCCCC(=O)O)cs3)nc2-c2csc(n2)-c2csc(n2)C(C(O)c2ccccc2)NC(=O)CNC(=O)c2nc(sc2CSc2cccc[n+]2[O-])C(C(C)C)NC(=O)c2nc1sc2C	MIC	ATCC 33591 (methicillin-resistant)	1 µg/mL
CCCCCCCCCCCC[N+](C)(C)CSCCCCCCCC	MBC	ATCC 6538	12.1 µM
COc1c(-c2ccc3c(c2)CNC3C)ccc2c(=O)c(C(=O)O)cn(C3CC3)c12	MIC	FDA209P	0.0625 µg/mL
CCCC/C=C/C(=O)NC[C@H]1CN(c2ccc3c(c2)-n2cccc2COC3)C(=O)O1	MIC	ATCC 29213 (MSSA)	>32 µg/mL
CNC(=O)c1ccc(N2C[C@H](CNC(C)=O)OC2=O)cc1F	MIC	ATCC 29213 (linezolid-resistant)	>64 µg/mL
CC(=O)NC[C@H]1CN(c2ccc3c(c2)-n2cccc2COC3)C(=O)O1	MIC	ATCC 49951 (SMITH)	2 µg/mL
COc1c(-c2ccc3c(c2)CNC3)c(F)cc2c(=O)c(C(=O)O)cn(C3CC3)c12	MIC	FDA209P	0.0156 µg/mL
CC(=O)NC[C@H]1CN(c2ccc(OC3CCN(C(C)=O)CC3)nc2)C(=O)O1	MIC	OC2878 methicillin-resistant	>128 µg/mL
CCCCCCCCCCCC[N+](C)(C)COC1CCCCC1	MIC	ATCC 6538	1.38 µM
CC(C)=CCc1c(O)ccc2c1OC1c3ccc(O)c(CC=C(C)C)c3OCC21	MIC		13.6 µg/mL
C[C@@H]1CN(c2c(F)c(N)c3c(=O)c(C(=O)O)cn(C4CC4)c3c2F)C[C@H](C)N1	MIC90	Methicillin-susceptible	0.06–0.2 µg/mL
CO/N=C/c1ccc(/C=C/C(=O)NC[C@H]2CN(c3ccc(C(N)=O)c(F)c3)C(=O)O2)cc1	MIC	ATCC 29213 (linezolid-resistant)	>64 µg/mL
CNC(=O)CC1NC(=O)c2csc(n2)-c2ccc(-c3nc(C(=O)NCCC(=O)OC(C)(C)C)cs3)nc2-c2csc(n2)-c2csc(n2)C(C(O)c2ccccc2)NC(=O)CNC(=O)c2nc(sc2CSSc2nc3ccccc3s2)C(C(C)C)NC(=O)c2nc1sc2C	MIC	ATCC 33591 (methicillin-resistant)	0.13 µg/mL
O=C(CC(F)(F)F)NC[C@H]1CN(c2ccc3c(c2)-n2cccc2COC3)C(=O)O1	MIC	ATCC 29213 (MSSA)	8 µg/mL
Cc1c(N)c(F)cc2c(=O)c(C(=O)O)cn(-c3cc(N)c(F)cc3F)c12	MIC	W44 (methicillin-resistant)	1 µg/mL
CC(=O)NC[C@H]1CN(c2ccc(SCSC#N)c(F)c2)C(=O)O1	MIC	ATCC 29213 (linezolid-resistant)	>64 µg/mL
CCCCCCCCCCCC[N+](C)(C)COCCCCCCCCC	MIC	ATCC 6538	3.69 µM
O=C(NC[C@H]1CN(c2ccc3c(c2)-n2cccc2COC3)C(=O)O1)C1CC1	MIC	ATCC 49951 (SMITH)	8 µg/mL
CC(=O)NC[C@H]1CN(c2ccc(SCCN3CCOCC3)c(F)c2)C(=O)O1	MIC	ATCC 29213 (linezolid-resistant)	>64 µg/mL
CNC(=O)CC1NC(=O)c2csc(n2)-c2ccc(-c3nc(C(=O)NCCC(=O)O)cs3)nc2-c2csc(n2)-c2csc(n2)C(C(O)c2ccccc2)NC(=O)CNC(=O)c2nc(sc2CSC)C(C(C)C)NC(=O)c2nc1sc2C	MIC	ATCC 33591 (methicillin-resistant)	0.125 µg/mL
CC(=O)NC[C@H]1CN(c2ccc(C(=O)Nc3ccc(Cl)nc3)c(F)c2)C(=O)O1	MIC	ATCC 29213 (linezolid-resistant)	>64 µg/mL
CC(=O)NC[C@H]1CN(c2ccc(SC3(C)CCOC3=O)c(F)c2)C(=O)O1	MIC	ATCC 29213 (linezolid-resistant)	>64 µg/mL
CCC1CN(c2c(F)cc3c(=O)c(C(=O)O)cn(C4CC4)c3c2OC)CCN1	MIC		0.11 µg/mL
CC(=O)NCC(=O)N1CCC(Oc2ccc(N3C[C@H](CNC(C)=O)OC3=O)cc2F)CC1	MIC	OC2878 methicillin-resistant	16 µg/mL
CNC(=O)CC1NC(=O)c2csc(n2)-c2ccc(-c3nc(C(=O)NCCC(=O)OC(C)(C)C)cs3)nc2-c2csc(n2)-c2csc(n2)C(C(O)c2ccccc2)NC(=O)CNC(=O)c2nc(sc2CSSC(C)C(=O)NCC(=O)O)C(C(C)C)NC(=O)c2nc1sc2C	MIC	ATCC 33591 (methicillin-resistant)	>16 µg/mL
CC(=O)NC[C@H]1CN(c2ccc(C(=O)NN)c(F)c2)C(=O)O1	MIC	ATCC 29213 (linezolid-resistant)	>64 µg/mL
COCCSc1ccc(N2C[C@H](CNC(C)=O)OC2=O)cc1F	MIC	ATCC 29213 (linezolid-resistant)	>64 µg/mL
CC(=O)NC[C@H]1CN(c2ccc(OC3CCN(c4ncccn4)CC3)c(F)c2)C(=O)O1	MIC	OC4172 methicillin-susceptible	32 µg/mL
CCCCCCCCCCCC[N+](C)(C)CSCCCCCC	MBC	ATCC33592	26.3 µM
CNC(=O)CC1NC(=O)c2csc(n2)-c2ccc(-c3nc(C(=O)NCCC(=O)OC(C)(C)C)cs3)nc2-c2csc(n2)-c2csc(n2)C(C(O)c2ccccc2)NC(=O)CNC(=O)c2nc(sc2CSSc2ccccn2)C(C(C)C)NC(=O)c2nc1sc2C	MIC	ATCC 33591 (methicillin-resistant)	0.06 µg/mL
CC(=S)NC[C@H]1CN(c2ccc3c(c2)-n2cccc2COC3)C(=O)O1	MIC	ATCC 49951 (SMITH)	1 µg/mL
CSCC(=O)NC[C@H]1CN(c2ccc(C(N)=O)c(F)c2)C(=O)O1	MIC	ATCC 29213 (linezolid-resistant)	>64 µg/mL

A second listing of 5 rows from above:

structure,read-out,strain or isolate,value
CC(C)C(=S)NC[C@H]1CN(c2ccc3c(c2)-n2cccc2COC3)C(=O)O1,MIC,ATCC 29213 (MSSA),4 µg/mL
CCCCCCCCCCOC[N+](C)(C)CCCCCCCC,MBC,ATCC 6538,27.5 µM
CC(C)=CCc1c(O)ccc2c1OC1c3ccc(O)c(CC=C(C)C)c3OCC21,MIC,,13.6 µg/mL
CC(C)=CCc1c(O)c(CC=C(C)C)c2occ(-c3ccc(O)cc3O)c(=O)c2c1O,MIC,,8.3 µg/mL
CNC(=O)CC1NC(=O)c2csc(n2)-c2ccc(-c3nc(C(=O)NCCC(=O)OC(C)(C)C)cs3)nc2-c2csc(n2)-c2csc(n2)C(C(O)c2ccccc2)NC(=O)CNC(=O)c2nc(sc2CSSc2nc3ccccc3s2)C(C(C)C)NC(=O)c2nc1sc2C,MIC,ATCC 33591 (methicillin-resistant),0.13 µg/mL